Test results from the supplement of paper PMC9931576.
Residue numbers refer to the chain shown, from its start. Human monoclonal antibodies against the spike receptor-binding domain (heavy:light variable regions). IC50 against pseudoviruses bearing the spike of naturally observed variants; lower = stronger; >10 µg/ml means not reached at the top dose. No active / inactive call. The stated detection limit is 0.0005 µg/ml; values near or below 0.001 µg/ml lie at the floor of the assay.

B1: BD56-1899 (protein)
chain 1: QITLKESGPTLVKPTQTLTLTCTFSGFSLTSSGVGVGWIRQPPGKALEWLALIYWDDDKRYRPSLKSRLTITKDASKKQVVFTLTNMGPVDTGTYYCAHIGGQLAVSDPATFDFWGQGTLVTVSS
chain 2: QSALTQPASVSGSPGQSITISCTGTNSDVGNYNFVSWYQHHPGKAPKLIIYEVSKRPSGVSNRFSGSKSGNTASLTISGLQAEDEAAYYCCSCTSGDTYWVFGGGTKLTVL
B2: BD56-1886 (protein)
chain 1: QVQLQESGPGLVKSSETLSLTCSVTGGSISNYYWSWIRQPPGKGLEWIGYIFYGGSTNYNPSLRSRVTMSVDSSKNQFSLKLNSVTAADTAVYYCARDSGYSSGWPDFFDYWGQGTRVTVSS
chain 2: EIVLTQSPATLSLSPGERATLSCRASQSVSSYLAWYQQKPGQAPRLLIYDASNRATGIPARFSGSGSGTDFTLTISSLEPEDFAVYYCQQRSNWPGTFGQGTKVEIK
B3: BD56-1898 (protein)
chain 1: EVQLVESGGGLVQPGGSLRLLCAASGLTFSSYWMSWVRQAPGKGLEWVANIKEDGSEKYYVDSVKGRFTISRDNAKNSLFLQMNSLRAEDTATYFCARVKWLRGGVDYWGQGALVTVSS
chain 2: NFMLTQPHSVSESPGRTVTISCTGSGGYIASNYVQWYQHRPGSAPTTVIYEDNQRPSGVPDRFSGSIDSSSNSASLTISGLKTEDEADYYCQSFDVTNHWVFGGGTKLTVL
B4: BD-467 (protein)
chain 1: EVQLVESGGGLVQPGGSLRLSCAASGITVSSNYMTWVRQAPGKGLEWVSLIYSGGSTYYADSVKGRFTISRDNSKNTLHLQMNSLRGEDTAVYYCARDLVAFGMDVWGQGTTVTVSS
chain 2: IQLTQSPSSLSASVGDRVTITCRASQGISSYLAWYQQKPGKAPKLLIYAASTLQGGVPSRFSGSGSGTDFTLTISSLQSEDSATYYCQQLNSDTPTFGPGTKVEIK
B5: BD56-1900 (protein)
chain 1: QVQLQESGPGLVKPSQTLSLTCTVSGDSINSGSYYWSWIRQTAGKGLEWIGRIYVSGATSYNPSLRSRVNISIDTSENRFSLNLTSVTAADTAVYYCARESKTTVTESGLVGVRVDPWGQGTQVIVSS
chain 2: DIQMTQSPSSLSASVGDRVTITCRASQSITRYLNWYQQKPGKAPKLLIYAASTLQSGVPSRFSGGASGSDFTLTISSLQPEDFATYFCHHSYGTPLFGPGTKVDIK
B6: BD56-1881 (protein)
chain 1: QVQLVQSGAEVKKPGSSVKVSCKASGDTFSSFSINWVRQAPGQGLEWMGRIIPLLDIVNYAQNFQGRVTLTADKSTTTAYMELTSLRFEDSAVYYCATARAPFYPSGYQGALNYFDPWGQGTLVTVSS
chain 2: EIVLTQSPGTLSLSPGERATLSCRASQSISNTYLAWYQQKPGQAPRLLIYGASSRATGIPDRFSGSGSGTDFTLTVSRLEPEDFAVYYCQQYHSSPFTFGQGTKLEIK
B7: BD56-1910 (protein)
chain 1: QITLKESGPTLVKPTQTLTLTCTFSGFSLSTRAVGVGVGWIRQPPGKALEWLALIYWDDDKRYSPSLESRLTITKDPSKNQVVLTMTNMDPVDTATYFCARHGIEVVFDYWGQGTVVTVSS
chain 2: QSALTQPRSVSGSPGQSVTISCTATTGDVGDYVYVSWYQQHPGKAPKLLIYDVTKRPSGVPDRFSGSKSGNTASLTISGLQTEDEAHFFCCSYTGTSVLFGGGTKLTVL
B8: BD56-1880 (protein)
chain 1: EVQLVESGGGLVQPGGSLRLSCAASGFTITNNYMSWVRQAPGKGLEWVSVINAGGSTYYADSVEGRFTISRDNSKNTLYLQMNSLRGEDTAVYFCARDPAGFGEFGFDLWGQGTLVTVSS
chain 2: DIQLTQSPSSLSASVGDRVTITCRASQGFGSYFAWYQQKPGKAPKLLIYSTSTLQSGVPSRFSGSGSGTDFTLTISSLQPEDFATYYCQQLNSSPPLTFGGGTKVEIK
B9: BD56-1905 (protein)
chain 1: QVQLVQSGAEVKKPGSAVTVSCKASGGTFSRFAINWVRQAPGQGLEWMGRIITISGASNYPQKFQGRVTITADKSTSTAYMELSSLRSEDTAVYYCASPYGANSVYGYLWDHYYGMDVWGQGTTVTVSS
chain 2: QSALTQPASVSGSPGQSITISCTGTSSDVGGYNYVSWYQQHPGKAPKLMIYDVSNRPSGISNRFSGSKSGNTASLTISGLQAEDEADYYCSSYTSSSTLYVFGTGTKVTVL
B10: BD56-1912 (protein)
chain 1: QVQLVQSGTEVKRPGSSVKVSCKASEDTFNSFAISWVRQAPGQRLEWIGRIIPIRGPAIYAQKFQGRVTISADKSTTTAYMELSSLRSEDTAVYYCARDEAVGSFYGSGSYYVDYWGQGTLVTVSS
chain 2: B9 chain 2 with S26G, Y34H, M49L, S54T, I60V, E83D, S91N, S96G, K107T
B11: BD56-1877 (protein)
chain 1: QVQLVQSGSELQKPGASVKVSCKASGYAFTTYAINWVRQAPGHGLEWMGWISTNTGNPAYAQGFTGRFVFSLDTSVSTAYLQISSLKAEDTAVYYCASQTIAPRPWPFDYWGQGTLVTVSS
chain 2: EIVLTQSPGTLSLSPGERATLSCRASQSVFSSYLAWYQQKPAQAPRLLISGASSRATGIPDRFSGSGSGTDFTLTISRLEPEDFAVYYCQQYGTSPPTFGQGTKVEIK
B12: BD56-1909 (protein)
chain 1: QVHLVQSGAEVKKPGSSVKVSCMASGGSFSSSAISWVRQAPGQGLEWMGRIIPLLGVAYYVQKFQDRVTFSADESSNTAYMDLTSLRSEDTAVYYCARVPHILTGYYSGFAFDIWGQGTMVIVSS
chain 2: B6 chain 2 with I29V, N31S, T32S, Y33H, V76I, Y87F, H93N, F97Y, K104R

target: SARS-CoV-2 Omicron BA.1 spike pseudovirus; test: pseudovirus neutralization IC50; higher = weaker neutralization
Experimental: (§1)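 Single-round VSV luciferase pseudovirus mixed with antibody dilutions for 1 h and put on Huh-7 cells for about a day; IC50 from the dose curve.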

| Binder | pseudovirus neutralization IC50 [µg/mL] |
| --- | --- |
| B1 | 0.0477 |
| B2 | 3.1 |
| B3 | > 10 |
| B4 | 3.25 |
| B5 | 0.361 |
| B6 | 0.0391 |
| B7 | 0.012 |
| B8 | 0.00836 |
| B9 | > 10 |
| B10 | 0.204 |
| B11 | 0.00644 |
| B12 | 0.0369 |

target: SARS-CoV-2 Omicron BA.2 spike pseudovirus; test: as above
Experimental: as §1

| Binder | pseudovirus neutralization IC50 [µg/mL] |
| --- | --- |
| B1 | 0.000554 |
| B2 | 5.32 |
| B3 | > 10 |
| B4 | 5.18 |
| B5 | 0.563 |
| B6 | 0.0952 |
| B7 | 0.00102 |
| B8 | 0.00798 |
| B9 | 0.269 |
| B10 | 0.134 |
| B11 | 0.00436 |
| B12 | 0.0576 |

target: SARS-CoV-2 Omicron BA.2.75 spike pseudovirus; test: as above
Experimental: as §1

| Binder | pseudovirus neutralization IC50 [µg/mL] |
| --- | --- |
| B1 | 0.0653 |
| B2 | 2.08 |
| B3 | > 10 |
| B4 | 4.13 |
| B5 | 0.155 |
| B6 | 0.0475 |
| B7 | 0.00464 |
| B8 | 0.0124 |
| B9 | > 10 |
| B10 | 0.00997 |
| B11 | 0.00855 |
| B12 | 0.00522 |

target: SARS-CoV-2 Omicron BA.5 spike pseudovirus; test: as above
Experimental: as §1

| Binder | pseudovirus neutralization IC50 [µg/mL] |
| --- | --- |
| B1 | 0.00153 |
| B2 | > 10 |
| B3 | > 10 |
| B4 | 2.81 |
| B5 | > 10 |
| B6 | > 10 |
| B7 | 0.000714 |
| B8 | 0.00667 |
| B9 | > 10 |
| B10 | 7.48 |
| B11 | > 10 |
| B12 | > 10 |

target: SARS-CoV-2 Omicron BQ.1.1 spike pseudovirus; test: as above
Experimental: as §1

| Binder | pseudovirus neutralization IC50 [µg/mL] |
| --- | --- |
| B1 | > 10 |
| B2 | > 10 |
| B3 | > 10 |
| B4 | > 10 |
| B5 | > 10 |
| B6 | > 10 |
| B7 | > 10 |
| B8 | 0.0567 |
| B9 | > 10 |
| B10 | > 10 |
| B11 | > 10 |
| B12 | > 10 |

target: SARS-CoV-2 Omicron XBB spike pseudovirus; test: as above
Experimental: as §1

| Binder | pseudovirus neutralization IC50 [µg/mL] |
| --- | --- |
| B1 | > 10 |
| B2 | > 10 |
| B3 | > 10 |
| B4 | > 10 |
| B5 | > 10 |
| B6 | > 10 |
| B7 | > 10 |
| B8 | 0.171 |
| B9 | > 10 |
| B10 | 1.89 |
| B11 | > 10 |
| B12 | > 10 |

target: SARS-CoV-2 early D614G spike pseudovirus; test: as above
Experimental: as §1

| Binder | pseudovirus neutralization IC50 [µg/mL] |
| --- | --- |
| B1 | 0.000869 |
| B2 | 0.205 |
| B3 | 0.365 |
| B4 | 0.0058 |
| B5 | 0.00101 |
| B6 | 0.00281 |
| B7 | 0.00321 |
| B8 | 0.00657 |
| B9 | 0.00318 |
| B10 | 0.0106 |
| B11 | 0.00225 |
| B12 | 0.000945 |
